Results of unrelated studies side by side (data: NIAID ChemDB).

Common to all: growth or infection tests; organism: HIV-1

Neighbouring rows are from separate reports.

compound,mutations,cells,strain or isolate,setting,measure,method,result
Nc1ncnc2c1ncn2[C@H]1O[C@@H](CO)[C@H](O)C1(F)F,,PBMC,LAV,,EC50,,3.4 µM
Nc1ccn([C@@H]2CS[C@H](CO)O2)c(=O)n1,,OM-10.1,,,EC50,p24,>20 µM
C/C(=N\NC(=O)CN1c2c(-c3ccccc3)n[nH]c2-c2ccccc2S1(=O)=O)c1ccc2c(c1)OCCO2,,PBMC,,,EC90,RT activity,>100 µM
Cc1nnc(NC(=O)N[C@@]23CC[C@]4(C)C(CCC5[C@@]6(C)CC[C@H](OC(=O)CC(C)(C)C(=O)O)C(C)(C)C6CC[C@]54C)C2=C(C(C)C)C(=O)C3)s1,,MT-2,IIIB,30% human serum,EC50,RT activity,<0.199 µM
C/C(=N\NC(=O)CN1c2c(-c3ccccc3)n[nH]c2-c2ccccc2S1(=O)=O)c1ccc(Cl)s1,,PBMC,,,EC90,RT activity,>100 µM
Nc1ncnc2c1ncn2[C@@H]1C=C(CO)[C@@H](O)[C@H]1O,,PBMC,18190 unpaired,,EC50,p24,0.0251 µM
CC(C)C1=C2[C@H]3CC[C@@H]4[C@@]5(C)CC[C@H](OC(=O)CC(C)(C)C(=O)O)C(C)(C)[C@@H]5CC[C@@]4(C)[C@]3(C)CC[C@@]2(NC(=O)Nc2ccncn2)CC1=O,,MT-2,IIIB,30% human serum,EC50,RT activity,<0.199 µM
O=c1[nH]c(=O)n([C@@H]2O[C@@H](CO)CC2(F)F)cc1F,,PBMC,LAV,,EC50,,>100 µM
C[C@H]1[C@H](O)[C@@H](C)/C=C/C=C/C=C/C=C/C=C/C=C/C=C/[C@H](O[C@@H]2O[C@H](C)[C@@H](O)[C@H](N)[C@@H]2O)C[C@@H]2O[C@](O)(C[C@@H](O)C[C@@H](O)CC[C@H](O)[C@@H](O)C[C@@H](O)CC(=O)O[C@H]1C)C[C@H](O)[C@H]2C(=O)O,,PBMC,CMU06 CLADE E X4 (SI),,EC50,p24 / RT activity,1.3 µM
Nc1nccc2c1ncn2[C@@H]1C=C(CO)[C@@H](O)[C@H]1O,,PBMC,18199 unpaired,,EC50,p24,0.015 µM
COc1ccccc1C(=O)Nc1ccc(Cl)c(C(=O)OC(C)C)c1,RT-Y181C,CEM + CEM-SS,UC040-R (RT-Y181C),,EC50,cytopathic effect / XTT,6.8 µM
CC(=O)N[C@@]12CC[C@]3(C)[C@H](CC[C@@H]4[C@@]5(C)CC[C@H](OC(=O)CC(C)(C)C(=O)O)C(C)(C)[C@@H]5CC[C@]43C)C1=C(C(C)C)C(=O)C2,,MT-2,IIIB,30% human serum,EC50,RT activity,<0.199 µM
COC(=O)[C@H](Cc1c[nH]c2ccccc12)NP(=O)(OCCC#N)OC[C@H]1O[C@@H](n2cc(C)c(=O)[nH]c2=O)C[C@@H]1N=[N+]=[N-],,PBMC,LAV,,EC50,RT activity,0.4 µM
CC(C)C1=C2C3CCC4[C@@]5(C)CC[C@H](OC(=O)CC(C)(C)C(=O)O)C(C)(C)C5CC[C@@]4(C)[C@]3(C)CC[C@@]2(NC(=O)NCC2CCN(C)CC2)CC1=O,,MT-2,IIIB,30% human serum,EC50,RT activity,0.2–0.999 µM
CC(=O)OCC1=C[C@H]2[C@@H]3C(C)(C)[C@]3(O)[C@H](OC(=O)/C=C/c3ccccc3)[C@@H](C)[C@]2(O)[C@@H]2C=C(C)C(=O)[C@@]2(O)C1,,C8166,IIIB,,EC50,p24 / ELISA,29.42 µM
Cc1ncc(-c2ccc(OCC3CCC3)cn2)c(N2CCC(C)(C)CC2)c1[C@H](OC(C)(C)C)C(=O)O,,MT-2,NL4-3,,EC50,luminescence,0.0011 µM
O=C1c2c(O)c(=O)n(C3CCCC3)c(=O)n2CCN1Cc1ccc(F)cc1,,MT-4,,,EC50,p24,<10 µM
Nc1nc(=O)n([C@H]2O[C@@H](CO)CC2(F)F)cc1I,,PBMC,LAV,,EC50,,>100 µM
Cc1ncc(-c2ccc(OCCOc3ccccc3Cl)cn2)c(N2CCC(C)(C)CC2)c1[C@H](OC(C)C)C(=O)O,,MT-2,NL4-3,,EC50,luminescence,0.0025 µM
CC(C)C1=C2C3CCC4[C@@]5(C)CC[C@H](OC(=O)CC(C)(C)C(=O)O)C(C)(C)C5CC[C@@]4(C)[C@]3(C)CC[C@@]2(NC(=O)NCC2CCC(F)(F)CC2)CC1=O,,MT-2,IIIB,30% human serum,EC50,RT activity,<0.199 µM
Cc1ncc(-c2ccc(OCC3CCCCC3)cc2)c(N2CCC(C)(C)CC2)c1[C@H](OC(C)(C)C)C(=O)O,,MT-2,NL4-3,,EC50,luminescence,0.0523 µM
CCCCCCCCC(=O)O[C@@H]1[C@@H](C)[C@@]2(O)[C@@H](C=C(CO)C[C@]3(O)C(=O)C(C)=C[C@@H]23)[C@@H]2C(C)(C)[C@]12OC(=O)CCCCCCCC,,C8166,IIIB,,EC50,p24 / ELISA,0.0046 µM
COC(=O)[C@H](Cc1ccccc1)NP(=O)(OC)OC[C@H]1O[C@@H](n2cc(C)c(=O)[nH]c2=O)C[C@@H]1N=[N+]=[N-],,PBMC,LAV,,EC50,RT activity,0.09 µM
O=C1c2c(O)c(=O)n(CC3(N4CCOCC4)CCCC3)c(=O)n2CCN1Cc1ccc(F)cc1,,MT-4,,,EC95,p24,<10 µM
C/C(=N\NC(=O)CN1c2c(-c3ccccc3)n[nH]c2-c2ccccc2S1(=O)=O)c1ccc(C)o1,,PBMC,,,EC90,RT activity,>100 µM
CC(C)=CCOc1cc(NC(=S)c2ccoc2C)ccc1Cl,RT-L74V,CEM + CEM-SS,NL4-3 (RT L74V),,EC50,cytopathic effect / XTT,0.006 µM
CCn1cc(C(=O)O)c(=O)c2cc(F)c(N3CCN(c4ccccc4OC)CC3)c(OC(F)F)c21,,PBMC,BaL,,EC50,p24,~0.6 µM
Cc1ccc(C)c(CS(=O)c2ccc(Cl)c[n+]2[O-])c1,,CEM,MN,,EC50,cytopathic effect,7.6 µg/mL
CC(C)n1c(=O)c(O)c2n(c1=O)CCN(Cc1cc3ccccc3cn1)C2=O,,MT-4,,,EC95,p24,<10 µM
CC(C)C1=C2C3CCC4[C@@]5(C)CC[C@H](OC(=O)CC(C)(C)C(=O)O)C(C)(C)C5CC[C@@]4(C)[C@]3(C)CC[C@@]2(NC(=O)N[C@@H](C)C(F)(F)F)CC1=O,,MT-2,IIIB,30% human serum,EC50,RT activity,<0.199 µM
Cc1ccnc(SC(F)(F)c2nc3ccccc3o2)n1,RT-L74V,,ddI-resistant (RT L74V),,EC50,,0.159 µM
COC(=O)[C@H](Cc1ccccc1)NP(=O)(O)OC[C@H]1O[C@@H](n2cc(C)c(=O)[nH]c2=O)C[C@@H]1N=[N+]=[N-],,PBMC,LAV,,EC50,RT activity,0.6 µM
Cc1ccccc1C(=O)N[C@@]12CC[C@]3(C)C(CC[C@@H]4[C@@]5(C)CC[C@H](OC(=O)CC(C)(C)C(=O)O)C(C)(C)[C@@H]5CC[C@]43C)C1=C(C(C)C)C(=O)C2,,MT-2,IIIB,30% human serum,EC50,RT activity,<0.199 µM
O=P(O)(O)OP(=O)(O)OP(=O)(O)OP(=O)(O)OP(=O)(O)OP(=O)(O)OP(=O)(O)OP(=O)(O)OP(=O)(O)OP(=O)(O)OP(=O)(O)OP(=O)(O)OP(=O)(O)OP(=O)(O)OP(=O)(O)O,,H9,IIIB,,EC50,p24,>100 µg/mL
C=C(C)[C@@H]1CC[C@]2(CO)CC[C@]3(C)[C@H](CC[C@@H]4[C@@]5(C)CC=CC(C)(C)[C@@H]5CC[C@]43C)[C@@H]12,,H9,IIIB,,EC50,p24,5.4 µM
CCCO[C@H](C(=O)O)c1c(C)ncc(-c2ccc(OCCOc3ccccc3Cl)cn2)c1N1CCC(C)(C)CC1,,MT-2,NL4-3,,EC50,luminescence,0.0007 µM
Cc1ccc(C(C)S(=O)(=O)c2c(C)ccc[n+]2[O-])c(C)c1,RT-Y181C,CEM,,,EC50,cytopathic effect,50 µg/mL
FC(F)(Sc1ncccn1)c1nc2ccccc2o1,RT-L100I,,OC/100,,EC50,,4.08 µM
O=c1ccn([C@@H]2O[C@@H](CO)CC2(F)F)c(=O)[nH]1,,PBMC,LAV,,EC50,,>100 µM
COc1cc(C[C@@]2(O)C(=O)OC[C@@H]2Cc2ccc(OC)c(OC)c2)ccc1O,,H9,IIIB,,EC50,p24,<0.05 µM
Cc1ccc(C)c(C(Cl)S(=O)(=O)c2cc(C)cc[n+]2[O-])c1,,CEM,MN,,EC50,cytopathic effect,≥4 µg/mL
COCCC(C)Oc1ccc(-c2cnc(C)c([C@H](OC(C)(C)C)C(=O)O)c2N2CCC(C)(C)CC2)nc1,,MT-2,NL4-3,,EC50,luminescence,0.0008 µM
CC(=O)OCC1=C[C@H]2[C@@H]3C(C)(C)[C@]3(OC(C)=O)[C@H](OC(=O)CCc3ccccc3)[C@@H](C)[C@]2(O)[C@@H]2C=C(C)C(=O)[C@@]2(O)C1,,C8166,IIIB,,EC50,p24 / ELISA,0.2087 µM
Cc1ncc(-c2ccc(OCCn3nc(C(F)F)c4c3C(F)(F)[C@@H]3C[C@H]43)cn2)c(N2CCC(C)(C)CC2)c1[C@H](OC(C)(C)C)C(=O)O,,MT-2,NL4-3,,EC50,luminescence,0.0026 µM
COc1cc(C)cc2c(-c3c(O)cc(O)c4c(C)nc(C)cc34)cc(-c3cc(-c4c(O)cc(O)c5c(C)nc(C)cc45)c4cc(C)cc(OC)c4c3O)c(O)c12,,CEM + CEM-SS,RF,,EC50,,29 µM
CCCCCCCCC(=O)O[C@@]12[C@H](OC(=O)/C=C/c3ccc(F)cc3)[C@@H](C)[C@@]3(O)[C@@H](C=C(CO)C[C@]4(O)C(=O)C(C)=C[C@@H]34)[C@@H]1C2(C)C,,C8166,IIIB,,EC50,syncytia / visual reading,0.007 µM
COc1cc(C[C@H]2C(=O)OC[C@@H]2Cc2ccc(OC)c(OC)c2)ccc1O,,H9,IIIB,,EC80,RT activity,0.05–0.9 µM
O=C1c2c(O)c(=O)n(C3CCSc4ccccc43)c(=O)n2CCN1Cc1ccc(F)cc1,,MT-4,,,EC50,p24,<10 µM
O=C(CN1c2c(-c3ccccc3)n[nH]c2-c2ccccc2S1(=O)=O)N/N=C/c1cccs1,,PBMC,,,EC90,RT activity,>100 µM
CC1=C[C@H]2[C@@]3(O)[C@H](C)[C@@H](O)[C@]4(OC(=O)/C=C/c5ccccc5)[C@H]([C@@H]3C=C(CO)C[C@]2(O)C1=O)C4(C)C,,C8166,IIIB,,EC50,p24 / ELISA,6.655 µM
Cc1ccc(C)c(CSc2c(Cl)ccc[n+]2[O-])c1,,CEM,MN,,EC50,cytopathic effect,0.4 µg/mL

An empty or dashed field is not shown. Two numbers with a dash give a range or band. ECn is the concentration giving n% inhibition of infection, replication or growth.